{"source": "paper PMC10666276", "about": "(Biochemistry, 2023)", "tested_on": "NC(=O)c1ccc[n+]([C@@H]2O[C@H](COP(=O)(O)OP(=O)(O)OC[C@H]3O[C@@H](n4cnc5c4ncn4ccnc54)[C@H](O)[C@@H]3O)[C@@H](O)[C@H]2O)c1", "assay": "purified protein", "conditions": "50 mM sodium acetate pH 5.5, 150 mM NaCl, 500 μM CaCl2, 25 °C, 10 ng enzyme", "data": [{"substance": "AfNADase (Aspergillus fumigatus Af293; D219A/E220A)", "values": [{"measurement": "Km", "value": "88.3 ± 12.2", "unit": "µM"}, {"measurement": "Vmax", "value": 2960, "unit": "µmol/min/mg"}]}]}
